Results of unrelated studies side by side (data: NIAID ChemDB).

Common to all: growth or infection tests; agent: HIV-1; cells: CEM; read-out: fold resistance

Neighbouring rows are from separate reports.

SMILES,strain,method,changes,result
CCn1c(=O)c(C)cn([C@@H]2O[C@H](CO[Si](C)(C)C(C)(C)C)C3(OS(=O)(=O)C=C3N)[C@H]2O[Si](C)(C)C(C)(C)C)c1=O,IIIB,syncytia,RT-E138K,>660
CCn1c(=O)c(C)cn([C@@H]2O[C@H](CO[Si](C)(C)C(C)(C)C)C3(OS(=O)(=O)C=C3N)[C@H]2O[Si](C)(C)C(C)(C)C)c1=O,IIIB TIBO R82913 STR-1 (RT L100I Y181C),syncytia,RT-L100I Y181C,>1670
Cc1cn([C@@H]2O[C@H](CO[Si](C)(C)C(C)(C)C)C3(OS(=O)(=O)C(I)=C3N)[C@H]2O[Si](C)(C)C(C)(C)C)c(=O)[nH]c1=O,TSAO-m3T-resistant (RT E138K),cytopathic effect,RT-E138K,>33.3
Nc1ccn([C@H]2CC[C@@H](CO)O2)c(=O)n1,IIIB TIBO R82150-resistant (RT L100I),syncytia,RT-L100I,0.36
C#CCN1C(=O)N(Cc2ccccc2)S(=O)(=O)c2cscc21,IIIB,syncytia,RT-E138K,5.9
Nc1ncnc2c1ncn2CC(CF)OCP(=O)(O)O,IIIB TSAO-T(RT-E138K),syncytia,RT-E138K,1.33
Cc1cn([C@@H]2O[C@H](CO[Si](C)(C)C(C)(C)C)C3(OS(=O)(=O)C=C3N)[C@H]2O[Si](C)(C)C(C)(C)C)c(=O)n(C)c1=O,HXB2 (RT E138A S162C E169D T200A L214F) Clinical isolate,syncytia,RT-E138A S162C E169D T200A L214F,13
CC(C)=CCN1Cc2cc(Cl)cc3[nH]c(=S)n(c23)C[C@@H]1C,IIIB,p24,RT-G190E,≥250
Cc1cn([C@@H]2O[C@H](CO[Si](C)(C)C(C)(C)C)[C@]3(C(N)=CS(=O)(=O)N3C)[C@H]2O[Si](C)(C)C(C)(C)C)c(=O)n(C(=O)OC(C)(C)C)c1=O,,cytopathic effect,RT-Y181C,>2.85
O=C1N(Cc2ccccc2)c2cscc2S(=O)(=O)N1Cc1ccccc1,IIIB,syncytia,RT-V106A,≥5.56
Cc1cn([C@@H]2O[C@H](CO[Si](C)(C)C(C)(C)C)[C@@]3(OS(=O)(=O)C=C3N)[C@H]2O[Si](C)(C)C(C)(C)C)c(=O)[nH]c1=O,IIIB,syncytia,RT-E138K,62
Fc1cccc(F)c1[C@H]1SCc2nc3ccccc3n21,IIIB,cytopathic effect / XTT,RT-Y188C,6.71
O=c1[nH]cnc2c1ncn2[C@H]1CC[C@@H](CO)O1,IIIB-TSAO-m3T(10)(RT-Y181C),syncytia,RT-Y181C,1.1
Cc1occc1C(=S)Nc1ccc(Cl)c(/C=N/OC(C)(C)C)c1,IIIB,p24,RT-K103N,≥20
CC(C)=CCN1Cc2cc(Cl)cc3[nH]c(=S)n(c23)C[C@@H]1C,HXB2 (RT E138A S162C E169D T200A L214F) Clinical isolate,syncytia,RT-E138A S162C E169D T200A L214F,0.7
CCn1c(=O)c(C)cn([C@@H]2O[C@H](CO[Si](C)(C)C(C)(C)C)C3(OS(=O)(=O)C=C3N)[C@H]2O[Si](C)(C)C(C)(C)C)c1=O,IIIB HEPT-resistant (RT Y188H),syncytia,RT-Y188H,>833
Cc1cn([C@@H]2O[C@H](CO[Si](C)(C)C(C)(C)C)C3(OS(=O)(=O)C=C3N)[C@H]2O[Si](C)(C)C(C)(C)C)c(=O)n(C)c1=O,TSAO-m3T-resistant,cytopathic effect,RT-E138K,>963
Cc1occc1C(=S)Nc1ccc(Cl)c(/C=N/OC(C)(C)C)c1,IIIB,syncytia,RT-E138K,1.5
Cc1cn([C@@H]2O[C@H](CO[Si](C)(C)C(C)(C)C)C3(OS(=O)(=O)C=C3N)[C@H]2O[Si](C)(C)C(C)(C)C)c(=O)n(C)c1=O,IIIB,p24,RT-M184I,1.04
CN1C(=O)N(Cc2ccccc2)S(=O)(=O)c2cscc21,IIIB,syncytia,RT-Y188H,≥141
Cc1cn([C@@H]2O[C@H](CO[Si](C)(C)C(C)(C)C)C3(OS(=O)(=O)C=C3N)[C@H]2O[Si](C)(C)C(C)(C)C)c(=O)n(C)c1=O,IIIB,syncytia,RT-C181I,>600
O=C1N(Cc2ccccc2)c2cscc2S(=O)(=O)N1Cc1ccccc1,,syncytia,RT-L100I,≥5.78
CC(C)=CCN1Cc2cccc3[nH]c(=S)n(c23)C[C@@H]1C,IIIB TIBO R82913 STR-B22 (RT L100I Y188H),syncytia,RT-L100I Y188H,≥250
CCn1c(=O)c(C)cn([C@@H]2O[C@H](CO[Si](C)(C)C(C)(C)C)C3(OS(=O)(=O)C=C3N)[C@H]2O[Si](C)(C)C(C)(C)C)c1=O,IIIB,syncytia,RT-E138K,>889
CCN1C(=O)N(Cc2cccc(Cl)c2)S(=O)(=O)c2cscc21,,syncytia,RT-V106A,30.5
Cc1cn([C@@H]2O[C@H](CO[Si](C)(C)C(C)(C)C)C3(OS(=O)(=O)C=C3N)[C@H]2O[Si](C)(C)C(C)(C)C)c(=O)n(C)c1=O,IIIB,syncytia,RT-Y188L,≥2080
Cc1cn([C@@H]2O[C@H](CO[Si](C)(C)C(C)(C)C)C3(OS(=O)(=O)C=C3N)[C@H]2O[Si](C)(C)C(C)(C)C)c(=O)n(C)c1=O,IIIB,syncytia,RT-V179D,0.88
COc1ccc2c(c1)N(C(=O)OC(C)C)[C@@H](CSC)C(=S)N2,HXB2 (RT E138A S162C E169D T200A L214F) Clinical isolate,syncytia,RT-E138A S162C E169D T200A L214F,10
Nc1ncnc2c1ncn2CCOCP(=O)(O)O,IIIB,syncytia,RT-E138K,0.824
Cc1cn([C@@H]2O[C@H](CO[Si](C)(C)C(C)(C)C)C3(OS(=O)(=O)C(I)=C3N)[C@H]2O[Si](C)(C)C(C)(C)C)c(=O)n(C)c1=O,TSAO-m3T-resistant (RT E138K),cytopathic effect,RT-E138K,>40
Fc1cccc(F)c1C1SCc2nc3ccccc3n21,IIIB,cytopathic effect / MTT,RT-K103N,11.22
Fc1cccc(F)c1[C@@H]1SCc2nc3ccccc3n21,IIIB,cytopathic effect / XTT,RT-D138K,2.06
CCn1c(=O)c(C)cn([C@@H]2O[C@H](CO[Si](C)(C)C(C)(C)C)C3(OS(=O)(=O)C=C3N)[C@H]2O[Si](C)(C)C(C)(C)C)c1=O,IIIB,syncytia,RT-Y181C,>833
Cc1cc(SC2=C(O)C[C@@](CCc3ccc(N)cc3)(C(C)C)OC2=O)c(C(C)(C)C)cc1CO,,cytopathic effect,PR-L10I V31I I15V K20I L24I M36I S37N I54V R57K L63P A71V V82A,<1
Cc1ccnc2c1NC(=O)c1cccnc1N2C1CC1,HXB2,syncytia,RT-M41L T215Y,2.22
CCc1cc(NCc2nc3c(Cl)ccc(Cl)c3o2)c(=O)[nH]c1C,IIIB BHAP(RT-L100I),syncytia,RT-L100I,14.3
Cc1cn([C@H]2C[C@H](N=[N+]=[N-])[C@@H](CO)O2)c(=O)[nH]c1=O,HXB2,syncytia,RT-M41L T215Y,≥1250
CCOCn1c(Cc2cc(C)cc(C)c2)c(CC)c(=O)[nH]c1=O,IIIB,syncytia,RT-Y181C,133
CCOCn1c(Cc2ccccc2)c(C(C)C)c(=O)[nH]c1=O,IIIB,syncytia,RT-L100I,7
CC(C)=CCN1Cc2cc(Cl)cc3[nH]c(=S)n(c23)C[C@@H]1C,IIIB,syncytia,RT-E138K,4.17
Fc1cccc(F)c1C1SCc2nc3ccccc3n21,Nevirapine-resistant (RT V106A),cytopathic effect / MTT,RT-V106A,5.49
CC(C)Nc1cccnc1N1CCN(C(=O)c2cc3ccccc3[nH]2)CC1,IIIB,syncytia,RT-E138K,2.25
CN(C)C(=O)c1cnnn1[C@@H]1O[C@H](CO[Si](C)(C)C(C)(C)C)C2(OS(=O)(=O)C=C2N)[C@H]1O[Si](C)(C)C(C)(C)C,IIIB,,RT-E138K,10
CC(C)=CCOc1cc(NC(=S)c2ccsc2C)ccc1Cl,IIIB,syncytia,RT-E138K,5.56
CC[C@H]1C(=O)Nc2ccc(F)cc2N1C(=O)OC(C)C,NNRTI-resistant,cytopathic effect,RT-L100I,20.5
O=c1[nH]c2ccc(Cl)cc2n1Cc1c(F)cccc1F,,cytopathic effect,RT-L100I,2.27
Cc1cc(C)cc(Sc2c(C(C)C)c(=O)[nH]c(=S)n2COCCO)c1,IIIB,syncytia,RT-E138K,13.3
CN1C(=O)N(Cc2ccccc2)S(=O)(=O)c2cscc21,,syncytia,RT-Y181C,>141
O=c1[nH]cnc2c1ncn2[C@H]1CC[C@@H](CO)O1,IIIB,syncytia,RT-E138K,2.17
O=c1[nH]cnc2c1ncn2[C@H]1CC[C@@H](CO)O1,IIIB,syncytia,RT-V106A,2.7
Cc1cn([C@@H]2O[C@H](CO[Si](C)(C)C(C)(C)C)C3(OS(=O)(=O)C=C3N)[C@H]2O[Si](C)(C)C(C)(C)C)c(=O)n(C)c1=O,IIIB TIBO R82913 STR-B02 (RT L100I E138K),syncytia,RT-L100I E138K,>1670
CC(C)Nc1cccnc1N1CCN(C(=O)c2cc3cc(NS(C)(=O)=O)ccc3[nH]2)CC1,HXB2,syncytia,RT-M41L T215Y,1.3
Cc1cn([C@@H]2O[C@H](CO[Si](C)(C)C(C)(C)C)C3(OS(=O)(=O)C=C3N)[C@H]2O[Si](C)(C)C(C)(C)C)c(=O)n(C)c1=O,TSAO-m3T-resistant (RT E138K),,RT-E138K,>1600
Cc1cn([C@@H]2O[C@H](CO[Si](C)(C)C(C)(C)C)[C@]3(C(N)=CS(=O)(=O)N3C)[C@H]2O[Si](C)(C)C(C)(C)C)c(=O)n(C)c1=O,,cytopathic effect,RT-E138K,>100
Fc1cccc(Cl)c1C1OCc2nc3ccccc3n21,Nevirapine-resistant (RT V106A),cytopathic effect / MTT,RT-V106A,>3.86
Cc1occc1C(=S)Nc1ccc(Cl)c(C(=O)OC2CCCC2)c1,IIIB,syncytia,RT-K103N,140
Nc1ncnc2c1ncn2CCOCP(=O)(O)O,IIIB-BHAP)(0.1)(RT-L100I,syncytia,RT-L100I,2.71
CCN1C(=O)N(Cc2ccccc2)S(=O)(=O)c2cscc21,IIIB,syncytia,RT-V106A,>207
CCOCn1c(Sc2ccccc2)c(CC)c(=O)[nH]c1=S,IIIB HEPT-resistant (RT Y188H),syncytia,RT-Y188H,≥5000
Fc1cccc(F)c1C1SCc2nc3ccccc3n21,IIIB,cytopathic effect / XTT,RT-Y181C,9.98
Cc1cn([C@@H]2O[C@H](CO[Si](C)(C)C(C)(C)C)C3(OS(=O)(=O)C=C3N)[C@H]2O[Si](C)(C)C(C)(C)C)c(=O)n(C)c1=O,HXB2,syncytia,RT-M41L T215Y,1
Nc1ccn([C@H]2CC[C@@H](CO)O2)c(=O)n1,IIIB-Pyridinone(0.1)(RT-V179N,syncytia,RT-V179N,0.4
Cc1cn([C@@H]2O[C@H](CO[Si](C)(C)C(C)(C)C)C3(OS(=O)(=O)C=C3N)[C@H]2O[Si](C)(C)C(C)(C)C)c(=O)n(C)c1=O,IIIB PYR(RT-Y181C),syncytia,RT-Y181C,73.3
CC(C)=CCOc1cc(NC(=S)c2ccoc2C)ccc1Cl,HHA-500SN (GP120-T90I T188N T236A N289K T297I S334N T341I N386D),syncytia,gp120 T90I T188N T236A N289K T297I S334N T341I N386D,2
Cc1ccnc2c1NC(=O)c1cccnc1N2C1CC1,Q-1 (RT T139K Y181C Y188D/Y),cytopathic effect,RT-T139K Y181C Y188D/Y,≥625
COc1ccc2c(c1)N(C(=O)OC(C)C)[C@@H](CSC)C(=S)N2,IIIB,p24,RT-K103N,3

For reference, 6 entries again:

CCN1C(=O)N(Cc2cccc(Cl)c2)S(=O)(=O)c2cscc21 ; method: syncytia ; changes: RT-V106A ; result: 30.5
Fc1cccc(F)c1[C@H]1SCc2nc3ccccc3n21 ; strain: IIIB ; method: cytopathic effect / XTT ; changes: RT-Y188C ; result: 6.71
Cc1cn([C@@H]2O[C@H](CO[Si](C)(C)C(C)(C)C)C3(OS(=O)(=O)C=C3N)[C@H]2O[Si](C)(C)C(C)(C)C)c(=O)n(C)c1=O ; strain: IIIB TIBO R82913 STR-B02 (RT L100I E138K) ; method: syncytia ; changes: RT-L100I E138K ; result: >1670
O=C1N(Cc2ccccc2)c2cscc2S(=O)(=O)N1Cc1ccccc1 ; method: syncytia ; changes: RT-L100I ; result: ≥5.78
CC(C)=CCOc1cc(NC(=S)c2ccoc2C)ccc1Cl ; strain: HHA-500SN (GP120-T90I T188N T236A N289K T297I S334N T341I N386D) ; method: syncytia ; changes: gp120 T90I T188N T236A N289K T297I S334N T341I N386D ; result: 2
CN1C(=O)N(Cc2ccccc2)S(=O)(=O)c2cscc21 ; strain: IIIB ; method: syncytia ; changes: RT-Y188H ; result: ≥141

Blank or dashed fields: not listed here. Fold resistance has wild type as its base.